Reference: article PMC4792379, “Time-Resolved Visualisation of Nearly-Native Influenza A Virus Progeny Ribonucleoproteins and Their Individual Components in Live Infected Cells” (2016)

Biological target: virus-encoded ribonucleoproteins (vRNPs) of the WSN-wt influenza A virus (influenza A virus A/WSN/33 (H1N1)), P15682
Assay: proximity ligation
Settings: remark: other sources report otherwise

B1: NP-mCherry fusion protein (influenza A virus nucleoprotein fused to mCherry), P15682 1-498 (natural protein)
chain: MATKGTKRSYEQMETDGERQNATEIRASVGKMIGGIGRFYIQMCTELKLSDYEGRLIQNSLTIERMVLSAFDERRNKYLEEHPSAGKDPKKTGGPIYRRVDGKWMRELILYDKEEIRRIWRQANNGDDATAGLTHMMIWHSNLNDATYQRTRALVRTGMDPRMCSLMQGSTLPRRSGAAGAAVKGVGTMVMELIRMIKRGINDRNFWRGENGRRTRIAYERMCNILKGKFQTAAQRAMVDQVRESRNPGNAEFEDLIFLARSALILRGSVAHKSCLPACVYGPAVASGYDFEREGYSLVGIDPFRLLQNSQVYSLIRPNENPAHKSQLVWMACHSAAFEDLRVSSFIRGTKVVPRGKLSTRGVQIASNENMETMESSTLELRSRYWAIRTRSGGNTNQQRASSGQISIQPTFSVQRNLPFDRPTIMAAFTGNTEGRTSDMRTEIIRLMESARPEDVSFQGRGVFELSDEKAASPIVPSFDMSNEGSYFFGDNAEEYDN
With B1 the PLA spots per cell was 147 spots/cell.
